## Fitness effects across NS2B and the NS3 protease domain of Zika virus

Values reported by Ni et al. 2025 (doi:10.1038/s41467-025-63602-z).

Protein: NS2B and the protease part of NS3 of Zika virus strain MR766. Positions count along the chain below; NS2B spans 2-131 and NS3 starts at 132.
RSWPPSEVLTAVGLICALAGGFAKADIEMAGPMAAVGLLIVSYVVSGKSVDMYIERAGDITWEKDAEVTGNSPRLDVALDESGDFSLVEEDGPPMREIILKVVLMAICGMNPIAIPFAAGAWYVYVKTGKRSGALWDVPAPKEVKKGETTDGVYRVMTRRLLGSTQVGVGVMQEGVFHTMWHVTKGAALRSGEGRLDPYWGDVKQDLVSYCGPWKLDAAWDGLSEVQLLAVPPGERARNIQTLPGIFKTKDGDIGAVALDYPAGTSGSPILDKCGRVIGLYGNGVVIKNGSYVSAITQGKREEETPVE

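Libraries of single mutants were passaged as virus pools on Huh-7.5 cells. The effect is the change in frequency of a mutant, normalised to wild type, as a mean of three replicate libraries (two for positions 207-308).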

Values are log2 effects on growth: 0 is wild type, lower means poorer growth.
Each entry names the wild-type residue, its position and the residue put in its place.

{"change": "I15K", "effect (log2)": -7.31}
{"change": "K24H", "effect (log2)": 0.64}
{"change": "A25*", "effect (log2)": -7.51}
{"change": "A25Q", "effect (log2)": -3.80}
{"change": "M33N", "effect (log2)": -6.05}
{"change": "A34F", "effect (log2)": -5.94}
{"change": "G37*", "effect (log2)": -7.92}
{"change": "S46L", "effect (log2)": -3.54}
{"change": "V50S", "effect (log2)": -2.70}
{"change": "D51T", "effect (log2)": -4.99}
{"change": "I54L", "effect (log2)": -0.87}
{"change": "E55N", "effect (log2)": -6.31}
{"change": "R74F", "effect (log2)": -5.60}
{"change": "V77H", "effect (log2)": -6.23}
{"change": "S82V", "effect (log2)": -7.48}
{"change": "L87G", "effect (log2)": -7.72}
{"change": "I98A", "effect (log2)": -4.30}
{"change": "A106M", "effect (log2)": -0.91}
{"change": "C108D", "effect (log2)": -5.80}
{"change": "N111W", "effect (log2)": -2.08}
{"change": "F117M", "effect (log2)": -1.76}
{"change": "A118W", "effect (log2)": -5.43}
{"change": "Y123E", "effect (log2)": -5.69}
{"change": "K127F", "effect (log2)": -5.60}
{"change": "D137Q", "effect (log2)": -6.08}
{"change": "T150V", "effect (log2)": -3.49}
{"change": "V153W", "effect (log2)": -6.05}
{"change": "V153Y", "effect (log2)": 0.58}
{"change": "M157G", "effect (log2)": -6.17}
{"change": "L161G", "effect (log2)": -6.19}
{"change": "Q166Y", "effect (log2)": -5.03}
{"change": "G168S", "effect (log2)": -6.59}
{"change": "V176P", "effect (log2)": -6.52}
{"change": "V176W", "effect (log2)": -5.13}
{"change": "H178G", "effect (log2)": -6.09}
{"change": "T184N", "effect (log2)": -5.69}
{"change": "G194Q", "effect (log2)": -5.65}
{"change": "L196P", "effect (log2)": -6.61}
{"change": "V208S", "effect (log2)": -9.04}
{"change": "C211*", "effect (log2)": -7.81}
{"change": "L229*", "effect (log2)": -4.94}
{"change": "P233D", "effect (log2)": -5.37}
{"change": "G234D", "effect (log2)": -4.98}
{"change": "R238Q", "effect (log2)": 1.52}
{"change": "L243M", "effect (log2)": -1.72}
{"change": "K248Q", "effect (log2)": -2.03}
{"change": "K248Y", "effect (log2)": -2.07}
{"change": "D251E", "effect (log2)": -0.40}
{"change": "L259*", "effect (log2)": -7.57}
{"change": "D260H", "effect (log2)": -4.09}
{"change": "Y261C", "effect (log2)": 1.61}
{"change": "A263M", "effect (log2)": -3.37}
{"change": "D272S", "effect (log2)": -3.31}
{"change": "V285K", "effect (log2)": -4.30}
{"change": "N289E", "effect (log2)": -4.95}
{"change": "S291P", "effect (log2)": -5.93}
{"change": "I296G", "effect (log2)": -5.18}
{"change": "V307E", "effect (log2)": -3.03}
{"change": "E308L", "effect (log2)": -0.12}

A selection of 3 entries from above:

change	effect (log2)
L196P	-6.61
F117M	-1.76
S82V	-7.48

Six mutants with high scores were retested singly and none clearly outgrew wild type, so positive values are not proof of better growth.
The authors count -1 or higher as tolerated. Position 1 is the last residue of NS2A.
The region was split into three libraries (1-103, 104-206, 207-308).
An asterisk is a stop codon; stop codons read about -7, near the floor of the assay.